Experimental data: PubChem BioAssay AID504761 (Drosophila RNAi Screening Center, 2011)
In all, the deposit lists about 22,000 reagents; this is an unselected part of those with a known target gene and a result. Of all reagents, 116 (0.52%) got an active call. 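Calls depend on retest data that are not deposited; infection was ranked per plate without normalising between plates; the unit of the infection score is not given.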 Raw values vary from plate to plate and are shown uncorrected. A number with no mark means an inactive call. Reagents against one gene are numbered here. Names joined by + are all predicted targets of the reagent. Not stated in the record: the amount of reagent, the time to read-out.

- Test: 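Fly genes whose silencing reduces dengue virus type 2 infection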 (primary screen)
- Cells: D.Mel-2 cells from Drosophila
- Reagent: long dsRNA against Drosophila genes
- Challenge: infection with dengue virus type 2; dose and infection time not stated
- Measurement: 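Per well on two replicate plates, imaging gave the percent of cells positive for viral envelope protein, ranked by infection, and a nuclear count of cells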
- Direction: infection score: higher = more virus-infected cells; cell count: higher = more cells in the well
- Hit rule: 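Low infection ranks in the two replicates (chance level up to 0.065) followed by a retest with a 1.5-fold or larger significant decrease, p below 0.05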
- Meaning of the calls: active = confirmed: knock-down lowers infection; inactive = not picked or not confirmed

Target gene | reagent no. | infection score, replicate 1 | infection score, replicate 2 | cell count, replicate 1 | cell count, replicate 2
eIF2Bdelta (eukaryotic translation initiation factor 2B subunit delta) | 1 | 29.3 | 18.1 | 5641 | 5971
Klp31E (Kinesin-like protein at 31E) | 1 | 12.7 | 18.9 | 6468 | 6071
CG14570 | 1 | 2.4 | 3.42 | 6617 | 6427
CG14570 | 2 | 6.71 | 10.9 | 6140 | 6059
cu (curled) | 1 | 2.22 | 11.1 | 6308 | 6015
cu (curled) | 2 | 3.92 | 25.1 | 6074 | 4066
Shark (SH2 ankyrin repeat kinase) | 1 | 12.2 | 15.7 | 6372 | 6279
Shark (SH2 ankyrin repeat kinase) | 2 | 14.4 | 10.1 | 6165 | 4892
Argl + CG9515 | 1 | 37.4 | – | 5382 | 435
Argl + CG9515 | 2 | 15.4 | 6.8 | 5872 | 6337
RhoGAP102A (Rho GTPase activating protein at 102A) | 1 | – | 14.5 | 352 | 2336
Or2a (Odorant receptor 2a) | 1 | 2.7 | 15.4 | 6378 | 5247
hppy (happyhour) | 1 | 2.47 | 1.79 | 6474 | 6799
hppy (happyhour) | 2 | 2.08 | 3.26 | 6683 | 6509
hppy (happyhour) | 3 | 1.72 | 1.22 | 6286 | 6236
hppy (happyhour) | 4 | 7.89 | 13.8 | 6375 | 5781
AP-2mu (Adaptor Protein complex 2, mu subunit) | 1 | 1.91 | 0.61 | 5616 | 6049
AP-2mu (Adaptor Protein complex 2, mu subunit) | 2 | 4.58 | 4.29 | 6196 | 3080
myd (mayday) | 1 | 2.69 | 3.95 | 6737 | 6808
Edc3 (Enhancer of decapping 3) | 1 | 11.3 | 9.48 | 5883 | 5453
Edc3 (Enhancer of decapping 3) | 2 | 11.4 | 10.4 | 6481 | 5964
RpL39 (Ribosomal protein L39) | 1 | 5.23 | 0.75 | 3806 | 402
bsh (brain-specific homeobox) | 1 | 18 | 5.98 | 6536 | 6354
bsh (brain-specific homeobox) | 2 | 4.35 | 5.41 | 5361 | 5473
CG2887 | 1 | 4 | 8.28 | 5946 | 6126
CG2887 | 2 | 4 | 5.73 | 5745 | 6090
CG12054 | 1 | 1.6 | 8.28 | 5996 | 6192
CG30467 | 1 | 5.24 | 11.8 | 6378 | 5747
Bhmt (Betaine-homocysteine S-methyltransferase) | 1 | 5.65 | 4.42 | 5880 | 6382
Bhmt (Betaine-homocysteine S-methyltransferase) | 2 | 3.11 | 5.96 | 6304 | 6074
CG6847 | 1 | 0.2 | 0.26 | 6623 | 6886
CG6847 | 2 | 0.99 (active) | 1.43 | 6438 | 6703
LManVI (Lysosomal alpha-mannosidase VI) | 1 | 2.89 | 1.83 | 6644 | 6768
LManVI (Lysosomal alpha-mannosidase VI) | 2 | 4.54 | 15.1 | 6874 | 6588
mRpS2 (mitochondrial ribosomal protein S2) | 1 | 13.7 | 6.15 | 6018 | 6718

Continued; the last 6 above are carried over.
Target gene | reagent no. | infection score, replicate 1 | infection score, replicate 2 | cell count, replicate 1 | cell count, replicate 2
Bhmt (Betaine-homocysteine S-methyltransferase) | 2 | 3.11 | 5.96 | 6304 | 6074
CG6847 | 1 | 0.2 | 0.26 | 6623 | 6886
CG6847 | 2 | 0.99 (active) | 1.43 | 6438 | 6703
LManVI (Lysosomal alpha-mannosidase VI) | 1 | 2.89 | 1.83 | 6644 | 6768
LManVI (Lysosomal alpha-mannosidase VI) | 2 | 4.54 | 15.1 | 6874 | 6588
mRpS2 (mitochondrial ribosomal protein S2) | 1 | 13.7 | 6.15 | 6018 | 6718
Prdm13 (PR/SET domain 13) | 1 | 1.23 | 4.43 | 6008 | 6043
CG13216 | 1 | 4.35 | 10.9 | 6961 | 6075
CG32085 | 1 | 3.22 | 3.72 | 5876 | 6052
CG32085 | 2 | 4.78 | 9.46 | 5855 | 6376
CG32085 | 3 | 1.67 | 2.09 | 5763 | 6175
CG4953 | 1 | 25.8 | 9.42 | 6298 | 6296
CG3216 | 1 | 2.57 | 9.01 | 6836 | 6692
CG3216 | 2 | 2.59 | 3.22 | 6051 | 6219
lap (like-AP180) | 1 | 3.1 | 12.8 | 6547 | 6406
lap (like-AP180) | 2 | – | – | 378 | 358
Shawl (Shaw-like) | 1 | 4.28 | 16.7 | 5838 | 5016
Shawl (Shaw-like) | 2 | 3.59 | 2.85 | 6467 | 6073
Shawl (Shaw-like) | 3 | 18.9 | 12.5 | 6512 | 6335
U4-U6-60K (U4-U6 small nuclear riboprotein factor 60K) | 1 | 14.5 | 12.5 | 1831 | 4725
CG10864 | 1 | 14.2 | 1.92 | 5033 | 6734
Eato (Engulfment ABC Transporter in the ovary) | 1 | 31 | 44.3 | 5697 | 5343
Eato (Engulfment ABC Transporter in the ovary) | 2 | 2.47 | 1.71 | 6691 | 6906
Alms1a (Alstrom syndrome 1a) | 1 | – | – | 387 | 415
Obp59a (Odorant-binding protein 59a) | 1 | 13.9 | 22.6 | 6161 | 6226
Dph1 (Diphthamide biosynthesis 1) | 1 | 19.9 | 15.3 | 6342 | 5215
CG42361 | 1 | 6.63 | 11.9 | 6683 | 5890
CG10102 (retired record) | 1 | 7.46 | 3.48 | 7020 | 6919
CG14982 | 1 | 3.81 | 1.38 | 6065 | 6825
